{"sequences": {"note": "Amino acid sequences for entries named in this document (tags omitted).", "UniProt Q9NY46, whole entry, looked up": "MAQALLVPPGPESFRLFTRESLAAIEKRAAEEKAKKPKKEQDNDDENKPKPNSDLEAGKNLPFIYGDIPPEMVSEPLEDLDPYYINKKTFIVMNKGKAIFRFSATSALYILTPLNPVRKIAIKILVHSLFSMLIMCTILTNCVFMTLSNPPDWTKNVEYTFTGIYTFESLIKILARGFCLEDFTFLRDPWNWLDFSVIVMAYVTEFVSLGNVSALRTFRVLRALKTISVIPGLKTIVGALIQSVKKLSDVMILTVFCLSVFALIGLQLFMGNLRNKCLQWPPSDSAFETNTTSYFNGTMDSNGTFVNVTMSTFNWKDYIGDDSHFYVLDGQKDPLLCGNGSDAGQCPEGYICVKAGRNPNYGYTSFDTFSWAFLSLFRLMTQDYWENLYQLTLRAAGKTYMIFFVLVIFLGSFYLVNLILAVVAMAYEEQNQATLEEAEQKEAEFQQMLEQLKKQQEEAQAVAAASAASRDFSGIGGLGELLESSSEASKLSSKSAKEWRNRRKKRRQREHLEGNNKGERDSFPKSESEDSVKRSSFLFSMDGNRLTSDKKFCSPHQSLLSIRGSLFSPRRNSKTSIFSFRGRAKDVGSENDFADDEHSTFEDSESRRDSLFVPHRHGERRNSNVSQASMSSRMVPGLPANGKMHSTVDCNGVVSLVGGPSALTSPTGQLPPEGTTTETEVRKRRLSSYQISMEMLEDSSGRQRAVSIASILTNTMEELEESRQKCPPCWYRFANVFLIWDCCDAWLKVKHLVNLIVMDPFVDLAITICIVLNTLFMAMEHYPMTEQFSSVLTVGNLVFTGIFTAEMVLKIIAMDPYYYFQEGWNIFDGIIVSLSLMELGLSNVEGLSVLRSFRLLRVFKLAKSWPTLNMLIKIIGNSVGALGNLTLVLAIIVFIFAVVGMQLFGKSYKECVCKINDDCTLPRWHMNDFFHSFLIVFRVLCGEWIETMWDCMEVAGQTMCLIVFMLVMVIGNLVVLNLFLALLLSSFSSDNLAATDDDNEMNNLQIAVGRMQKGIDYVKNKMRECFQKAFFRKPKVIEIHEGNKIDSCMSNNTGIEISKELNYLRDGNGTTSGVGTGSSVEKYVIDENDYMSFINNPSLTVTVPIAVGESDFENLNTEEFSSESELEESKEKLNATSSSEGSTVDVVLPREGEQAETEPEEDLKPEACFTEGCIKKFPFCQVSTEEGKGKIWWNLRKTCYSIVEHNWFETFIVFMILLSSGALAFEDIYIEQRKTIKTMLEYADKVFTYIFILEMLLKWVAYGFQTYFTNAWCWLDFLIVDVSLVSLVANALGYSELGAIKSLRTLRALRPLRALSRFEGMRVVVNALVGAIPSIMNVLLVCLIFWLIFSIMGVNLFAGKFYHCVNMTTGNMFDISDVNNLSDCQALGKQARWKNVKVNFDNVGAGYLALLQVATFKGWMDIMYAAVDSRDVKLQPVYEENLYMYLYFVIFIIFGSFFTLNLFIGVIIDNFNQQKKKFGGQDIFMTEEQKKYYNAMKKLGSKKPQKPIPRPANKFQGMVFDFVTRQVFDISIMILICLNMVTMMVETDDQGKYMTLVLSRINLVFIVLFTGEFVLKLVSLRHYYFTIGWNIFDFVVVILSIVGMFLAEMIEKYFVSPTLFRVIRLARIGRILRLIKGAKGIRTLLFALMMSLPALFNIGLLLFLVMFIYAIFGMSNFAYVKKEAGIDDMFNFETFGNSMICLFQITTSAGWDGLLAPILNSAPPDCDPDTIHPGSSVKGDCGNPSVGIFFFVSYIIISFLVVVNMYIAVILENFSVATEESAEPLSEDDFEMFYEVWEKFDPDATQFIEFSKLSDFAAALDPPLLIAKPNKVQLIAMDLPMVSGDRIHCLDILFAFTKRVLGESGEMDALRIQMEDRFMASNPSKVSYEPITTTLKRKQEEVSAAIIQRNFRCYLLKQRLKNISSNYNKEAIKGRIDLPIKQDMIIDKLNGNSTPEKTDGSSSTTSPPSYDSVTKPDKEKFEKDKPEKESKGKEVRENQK", "UniProt P35499, whole entry, looked up": "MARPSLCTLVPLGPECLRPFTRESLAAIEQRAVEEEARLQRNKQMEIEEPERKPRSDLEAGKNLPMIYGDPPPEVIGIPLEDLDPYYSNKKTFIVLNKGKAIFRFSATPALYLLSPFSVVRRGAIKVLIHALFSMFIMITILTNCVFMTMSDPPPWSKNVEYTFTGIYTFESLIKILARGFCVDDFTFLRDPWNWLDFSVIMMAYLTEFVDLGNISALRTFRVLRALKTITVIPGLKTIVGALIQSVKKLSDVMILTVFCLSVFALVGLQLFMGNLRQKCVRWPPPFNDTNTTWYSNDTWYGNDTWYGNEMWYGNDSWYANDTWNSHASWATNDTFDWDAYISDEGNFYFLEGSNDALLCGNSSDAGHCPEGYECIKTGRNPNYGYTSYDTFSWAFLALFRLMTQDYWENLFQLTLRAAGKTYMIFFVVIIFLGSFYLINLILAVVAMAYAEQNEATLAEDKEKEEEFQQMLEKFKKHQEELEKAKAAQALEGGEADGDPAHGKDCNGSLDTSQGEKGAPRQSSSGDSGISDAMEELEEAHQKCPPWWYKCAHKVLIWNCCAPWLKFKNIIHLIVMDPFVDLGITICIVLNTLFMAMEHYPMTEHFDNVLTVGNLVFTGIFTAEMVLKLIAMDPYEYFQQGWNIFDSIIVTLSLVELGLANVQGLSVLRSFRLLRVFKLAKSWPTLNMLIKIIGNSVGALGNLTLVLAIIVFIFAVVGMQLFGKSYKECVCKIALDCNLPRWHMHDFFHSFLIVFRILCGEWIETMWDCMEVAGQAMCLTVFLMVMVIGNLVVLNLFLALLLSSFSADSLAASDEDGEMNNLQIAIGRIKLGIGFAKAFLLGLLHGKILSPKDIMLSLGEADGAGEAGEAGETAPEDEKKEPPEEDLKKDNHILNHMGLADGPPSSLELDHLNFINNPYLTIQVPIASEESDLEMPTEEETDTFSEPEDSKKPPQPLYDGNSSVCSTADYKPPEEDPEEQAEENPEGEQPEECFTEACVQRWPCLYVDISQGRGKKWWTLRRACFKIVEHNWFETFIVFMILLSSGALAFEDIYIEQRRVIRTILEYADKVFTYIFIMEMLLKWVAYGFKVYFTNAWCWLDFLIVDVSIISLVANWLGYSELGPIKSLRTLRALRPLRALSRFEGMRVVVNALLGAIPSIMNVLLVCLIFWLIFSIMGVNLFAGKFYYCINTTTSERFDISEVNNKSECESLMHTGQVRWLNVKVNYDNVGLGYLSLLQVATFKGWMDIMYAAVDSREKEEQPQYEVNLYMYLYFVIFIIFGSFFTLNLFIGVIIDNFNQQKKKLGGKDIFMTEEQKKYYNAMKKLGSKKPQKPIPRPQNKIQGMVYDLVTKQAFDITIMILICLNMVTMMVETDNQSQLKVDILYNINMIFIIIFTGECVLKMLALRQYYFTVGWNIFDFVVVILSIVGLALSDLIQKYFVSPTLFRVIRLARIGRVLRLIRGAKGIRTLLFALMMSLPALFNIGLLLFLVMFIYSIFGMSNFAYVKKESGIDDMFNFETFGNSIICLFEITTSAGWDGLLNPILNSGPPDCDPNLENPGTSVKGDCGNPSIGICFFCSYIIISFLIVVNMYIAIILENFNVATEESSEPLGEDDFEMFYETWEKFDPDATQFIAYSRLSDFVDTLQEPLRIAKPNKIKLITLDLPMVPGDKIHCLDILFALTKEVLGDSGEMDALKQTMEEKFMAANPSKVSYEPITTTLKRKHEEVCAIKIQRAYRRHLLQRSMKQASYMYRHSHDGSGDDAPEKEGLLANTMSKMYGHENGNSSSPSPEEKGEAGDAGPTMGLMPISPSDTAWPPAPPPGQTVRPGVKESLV", "UniProt Q14524, whole entry, looked up": "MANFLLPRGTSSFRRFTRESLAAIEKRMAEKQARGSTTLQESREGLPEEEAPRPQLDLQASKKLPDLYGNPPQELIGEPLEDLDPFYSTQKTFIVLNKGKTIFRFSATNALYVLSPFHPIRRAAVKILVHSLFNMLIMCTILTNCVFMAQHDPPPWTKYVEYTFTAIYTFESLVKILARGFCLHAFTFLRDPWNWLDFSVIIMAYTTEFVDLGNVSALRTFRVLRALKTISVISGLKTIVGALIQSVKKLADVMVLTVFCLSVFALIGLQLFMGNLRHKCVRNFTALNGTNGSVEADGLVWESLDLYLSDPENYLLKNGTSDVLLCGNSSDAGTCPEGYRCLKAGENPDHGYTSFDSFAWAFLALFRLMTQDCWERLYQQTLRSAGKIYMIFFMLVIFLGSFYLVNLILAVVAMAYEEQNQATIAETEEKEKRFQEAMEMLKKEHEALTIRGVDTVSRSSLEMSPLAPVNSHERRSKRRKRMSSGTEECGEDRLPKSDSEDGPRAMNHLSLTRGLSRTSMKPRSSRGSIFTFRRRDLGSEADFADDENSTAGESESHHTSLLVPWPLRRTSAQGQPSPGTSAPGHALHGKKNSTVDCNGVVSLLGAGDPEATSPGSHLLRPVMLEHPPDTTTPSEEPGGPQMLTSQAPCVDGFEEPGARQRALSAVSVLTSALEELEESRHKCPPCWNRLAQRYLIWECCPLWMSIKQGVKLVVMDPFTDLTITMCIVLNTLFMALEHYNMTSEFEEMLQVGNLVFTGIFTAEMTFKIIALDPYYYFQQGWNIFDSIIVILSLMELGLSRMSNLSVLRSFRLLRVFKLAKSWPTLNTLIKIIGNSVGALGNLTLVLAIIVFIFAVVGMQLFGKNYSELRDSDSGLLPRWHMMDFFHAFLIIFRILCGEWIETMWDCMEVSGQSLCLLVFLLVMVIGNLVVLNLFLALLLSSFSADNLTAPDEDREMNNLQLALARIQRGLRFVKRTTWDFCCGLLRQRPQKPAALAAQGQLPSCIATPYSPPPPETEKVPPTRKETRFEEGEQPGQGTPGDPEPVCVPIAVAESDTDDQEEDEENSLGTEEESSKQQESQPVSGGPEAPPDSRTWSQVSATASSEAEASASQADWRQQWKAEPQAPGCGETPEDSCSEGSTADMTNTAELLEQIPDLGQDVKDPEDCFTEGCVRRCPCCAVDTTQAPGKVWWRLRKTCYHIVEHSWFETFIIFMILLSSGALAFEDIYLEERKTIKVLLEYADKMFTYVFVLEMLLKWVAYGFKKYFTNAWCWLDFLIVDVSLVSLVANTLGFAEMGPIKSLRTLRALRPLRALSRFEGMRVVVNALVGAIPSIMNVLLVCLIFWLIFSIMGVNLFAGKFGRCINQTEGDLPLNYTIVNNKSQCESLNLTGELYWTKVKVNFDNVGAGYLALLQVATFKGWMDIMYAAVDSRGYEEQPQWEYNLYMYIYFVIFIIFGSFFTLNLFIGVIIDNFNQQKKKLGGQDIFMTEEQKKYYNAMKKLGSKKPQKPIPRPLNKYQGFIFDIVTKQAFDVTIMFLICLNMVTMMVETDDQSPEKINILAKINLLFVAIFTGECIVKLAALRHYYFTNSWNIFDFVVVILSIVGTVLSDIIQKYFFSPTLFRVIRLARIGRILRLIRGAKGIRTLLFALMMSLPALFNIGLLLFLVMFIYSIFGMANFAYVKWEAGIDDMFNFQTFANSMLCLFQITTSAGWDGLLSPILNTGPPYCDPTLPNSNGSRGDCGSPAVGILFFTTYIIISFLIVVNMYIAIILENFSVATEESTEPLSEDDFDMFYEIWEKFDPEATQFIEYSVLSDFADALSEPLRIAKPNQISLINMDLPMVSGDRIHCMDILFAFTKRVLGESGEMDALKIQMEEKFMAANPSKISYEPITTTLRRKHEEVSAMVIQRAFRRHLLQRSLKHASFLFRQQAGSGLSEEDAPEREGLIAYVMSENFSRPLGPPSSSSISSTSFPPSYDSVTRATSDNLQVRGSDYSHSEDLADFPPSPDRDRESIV"}, "source": "patent US9340590B2", "about": "“Potent and selective inhibitors of NaV1.3 and NaV1.7” (priority 2011, dated 2016)", "key": {"hNav1.3": {"molecular_target": "hNav1.3 (Homo sapiens, UniProt Q9NY46)", "conditions": "ratio of Use IC50 values, Nav1.3 over Nav1.7"}, "hNav1.4": {"molecular_target": "hNav1.4 (Homo sapiens, UniProt P35499)", "conditions": "ratio of Use IC50 values"}, "hNav1.5": {"molecular_target": "hNav1.5 (Homo sapiens, UniProt Q14524)", "conditions": "ratio of Use IC50 values"}}}
{"smiles": "N=C(N)NCCC[C@@H]1NC(=O)[C@H](CO)NC(=O)[C@H](Cc2c[nH]cn2)NC(=O)[C@H](CC(=O)O)NC(=O)[C@H](CCCNC(=N)N)NC(=O)[C@@H]2CSSC[C@H](N)C(=O)N[C@H]3CSSC[C@@H](C(N)=O)NC(=O)[C@H](CSSC[C@H](NC(=O)[C@H](CC(N)=O)NC3=O)C(=O)N[C@@H](CO)C(=O)N[C@@H](CO)C(=O)N[C@@H](CCCCN)C(=O)N[C@@H](Cc3c[nH]c4ccccc34)C(=O)N2)NC1=O", "values": [{"measurement": "Nav1.3/Nav1.7 Use", "setting": "hNav1.3", "result": 4.0}, {"measurement": "Nav1.4/Nav1.3 Use", "setting": "hNav1.4; Nav1.4 over Nav1.3", "result": 0}, {"measurement": "Nav1.4/Nav1.7 Use", "setting": "hNav1.4; Nav1.4 over Nav1.7", "result": 0}, {"measurement": "Nav1.5/Nav1.3 Use", "setting": "hNav1.5; Nav1.5 over Nav1.3", "result": 0}, {"measurement": "Nav1.5/Nav1.7 Use", "setting": "hNav1.5; Nav1.5 over Nav1.7", "result": 0}]}
